Experimental data published in publication PMC12443476 (eLife, 2025).

B1: WT refolded Orf9b (apo-Orf9b homodimer) (natural protein)
chain: not shown
notes: also called apo-homodimer; lipid-free Orf9b
B2: Orf9b Delta variant (T60A), refolded (natural protein)
chain: not shown
notes: also called Orf9b T60A

Columns and labels:
[1] = target: T1, biotinylated Tom70 ([…]) with N-terminal AVI tag (human, biotin (AVI tag, by co-expressed BirA)); experiment: SPR; conditions: both partners purified
T1 construct: also called biotin-Tom70; immobilized Tom70

SEC = target: the molecule itself; experiment: SEC
[2] = target: T2, hTom70 ([…]) lacking the transmembrane domain (human); experiment: fluorescence polarisation; conditions: both partners purified
T2 construct: also called Translocase of Outer Membrane 70

Row | Binder | Kd [1] | fold slower association rate than the Orf9b peptide [1] | fold slower dissociation rate than the Orf9b peptide [1] | stoichiometry N (SEC) | binding result [2]
1 | B1 | 0.19 ± 0.001 µM | ~3 fold | ~10 fold |  | 
2 | B2 |  |  |  | 2 | binds
